Results as given in patent US11407715B2, “Substituted indoline derivatives as dengue viral replication inhibitors” (JANSSEN PHARMACEUTICALS, INC., priority 2017, dated 2022).

Assays:
Format in all cases: cell-based, Dengue virus
DENV-1 strain TC974#666 = experiment: Tetravalent RT-qPCR assay, serotype 1; conditions: RT-qPCR serotype 1 TC974#666; selectivity index
Method: (§1) The antiviral activity of the compounds of the invention was tested against DENV-1 strain TC974#666 (NCPV), DENV-2 strain 16681, DENV-3 strain H87 (NCPV) and DENV-4 strain H241 (NCPV) in a RT-qPCR assay. Therefore, Vero cells were infected with either DENV-1, or -2, or -3, or -4 in the presence or absence of test compounds. At day 3 post-infection, the cells were lysed and cell lysates were used to prepare cDNA of both a viral target (the 3′UTR of DENV; Table 2) and a cellular reference gene (β-actin, Table 2). Subsequently, a duplex real time PCR was performed on a Lightcycler480 instrument. The generated Cp value is inversely proportional to the amount of RNA expression of these targets. Inhibition of DENV replication by a test compound results in a shift of Cp's for the 3′UTR gene. On the other hand, if a test compound is toxic to the cells, a similar effect on β-actin expression will be observed. The comparative ΔΔCp method is used to calculate ECs50, which is based on the relative gene expression of the target gene (3′UTR) normalized with the cellular housekeeping gene (β-actin). In addition, CC50 values are determined based on the Cp values acquired for the housekeeping gene β-actin.
(§2) The culture medium consisted of minimal essential medium supplemented with 2% of heat-inactivated fetal calf serum, 0.04% gentamycin (50 mg/mL) and 2 mM of L-glutamine. Vero cells, obtained from ECACC, were suspended in culture medium and 75 μL/well was added in 96-well plates (10000 cells/well), which already contain the antiviral compounds. […] In addition, each plate contains wells which are assigned as virus controls (containing cells and virus in the absence of compound) and cell controls (containing cells in the absence of virus and compound). Once the cells were added in the plates, the plates were incubated in a fully humidified incubator (37° C., 5% CO2) until the next day. Dengue viruses serotype-1, 2, 3 and 4 were diluted in order to obtain a Cp of ˜22-24 in the assay. Therefore, 25 μL of virus suspension was added to all the wells containing test compound and to the wells assigned as virus control. In parallel, 25 μL of culture medium was added to the cell controls. Next, the plates were incubated for 3 days in a fully humidified incubator (37° C., 5% CO2). After 3 days, the supernatant was removed from the wells and the cells were washed twice with ice-cold PBS (˜100 μL). The cell pellets within the 96-well plates were stored at −80° C. for at least 1 day. Next, RNA was extracted using the Cells-to-CT™ lysis kit, according to the manufacturer's guideline (Life Technologies). The cell lysates can be stored at −80C or immediately used in the reverse transcription step.
(§3) In preparation of the reverse transcription step, mix A (table 3A) was prepared and 7.57 μL/well was dispensed in a 96-well plate. After addition of 5 μL of the cell lysates, a five minute denaturation step at 75° C. was performed (table 3B). Afterwards, 7.43 μL of mix B was added (table 3C) and the reverse transcription step was initiated (table 3D) to generate cDNA.
(§4) Finally, a RT-qPCR mix was prepared, mix C (table 4A), and 22.02 μL/well was dispensed in 96-well LightCycler qPCR plates to which 3 μL of cDNA was added and the qPCR was performed according to the conditions in table 4B on a LightCycler 480.
(§5) Using the LightCycler software and an in-house LIMS system, dose response curves for each compound were calculated and the half maximal effective concentration (EC50) and the half maximal cytotoxic concentration (CC50) were determined (Tables 5-8).

DENV-2 strain 16681 = experiment: Tetravalent RT-qPCR assay, serotype 2; conditions: RT-qPCR serotype 2 16681; selectivity index
Method: as §1, §2, §3, §4, §5

DENV-3 strain H87 = experiment: Tetravalent RT-qPCR assay, serotype 3; conditions: RT-qPCR serotype 3 H87; selectivity index
Method: as §1, §2, §3, §4, §5

DENV-4 strain H241 = experiment: Tetravalent RT-qPCR assay, serotype 4; conditions: RT-qPCR serotype 4 H241; selectivity index
Method: as §1, §2, §3, §4, §5

Row | Compound | SI (DENV-1 strain TC974#666) | SI (DENV-2 strain 16681) | SI (DENV-3 strain H87) | SI (DENV-4 strain H241)
1 | COc1cc(NC(C(=O)N2CCc3ccc(OC(F)(F)F)cc32)c2ccc(Cl)cc2)cc(OCC2(F)CC2C(=O)O)c1 (stereo not drawn) [Compound 28BB] | >29800 | >19900 | >1680 | >58
2 | COc1cc(NC(C(=O)N2CCc3ccc(OC(F)(F)F)cc32)c2ccc(Cl)cc2)cc(OCC(C)CC(=O)O)c1 (single isomer, unassigned) [Compound 4D] | >7140 | >15600 | >727 | 73
3 | COc1cc(NC(C(=O)N2CCc3cc(F)c(OC(F)(F)F)cc32)c2ccc(Cl)cc2)cc(OCC2CC(C(=O)O)C2)c1 (stereo not drawn) [Compound 30A] | >54900 | >65700 | >840 | 399
4 | COc1cc(NC(C(=O)N2CCc3ccc(OC(F)(F)F)cc32)c2ccc(Cl)cc2OC)cc(OCCC(C)C(=O)O)c1 (single isomer, unassigned) [Compound 17D] | >15400 | >24100 | >541 | 168
5 | COc1cc(NC(C(=O)N2CCc3ccc(OC(F)(F)F)cc32)c2ccc(Cl)cc2)cc(OCCCCC(=O)O)c1 (single isomer, unassigned) [Compound 13B] | >10400 | >23900 | >1350 | 323
6 | COc1cc(NC2CC(C(=O)O)C2)cc(NC(C(=O)N2CCc3ccc(OC(F)(F)F)cc32)c2ccc(Cl)cc2)c1 (single isomer, unassigned) [Compound 33C] | >3500 | >4630 | >185 | 9.8
7 | COc1cc(NC(C(=O)N2CCc3ccc(OC(F)(F)F)cc32)c2ccc(Cl)cc2)cc(OC2CC(C(=O)O)C2)c1 (stereo not drawn) [Compound 7B] | >23200 | >30600 | >1810 | 582
8 | COc1cc(NC(C(=O)N2CCc3cc(OC)c(Cl)cc32)c2ccc(Cl)cc2)cc(OC2CC(C(=O)O)C2)c1 (single isomer, unassigned) [Compound 32B] | >10300 | >35800 | >2870 | 295
9 | COc1cc(NC2CC(C(=O)O)C2)cc(NC(C(=O)N2CCc3ccc(OC(F)(F)F)cc32)c2ccc(Cl)cc2)c1 (single isomer, unassigned) [Compound 33D] | >7130 | >6620 | >732 | 256
10 | COc1cc(NC(C(=O)N2CCc3cc(OC)c(C(F)(F)F)cc32)c2ccc(Cl)cc2)cc(OCC2CC(C(=O)O)C2)c1 (stereo not drawn) [Compound 25B] | >1210 | >6080 | >190 | 202
11 | COc1cc(NC(C(=O)N2CCc3ccc(OC(F)(F)F)cc32)c2ccc(Cl)cc2OC)cc(OCC2CC2C(=O)O)c1 (stereo not drawn) [Compound 19AB] | >56300 | >92300 | >8790 | 8200
12 | COc1cc(NC(C(=O)N2CCc3cc(OC)c(C(F)(F)F)cc32)c2ccc(Cl)cc2)cc(OC2CC(C(=O)O)C2)c1 (stereo not drawn) [Compound 23B] | >18200 | >51700 | >6770 | 2230

Which two values form the index is not stated here.
